Results of unrelated studies side by side (data: NIAID ChemDB).

Shared fields: toxicity to cultured cells; cell line: MT-4; read-out: CC50

Rows are shuffled and stem from different studies. CCn: concentration that lowers growth or viability of the cells by n%. An empty or dashed field is not shown.

CCOP(=O)(N[C@@H](Cc1ccccc1)[C@H](O)CN(CC(C)C)S(=O)(=O)c1ccc(OC)cc1)OCC ; method: MTT ; result: 64.5 µg/mL
CC1=C(C)[C@]2(C)C(C)[C@@]1(C)[C@@H]1C(=O)N(N)C(=O)[C@@H]12 ; method: MTT ; result: >100 µM
Nc1ccc(-c2n[nH]c(=S)n2N)cc1 ; result: 12 µg/mL
C=C(C)[C@@H]1CC[C@]2(C(=O)NCCCCCNC(C)=O)CC[C@]3(C)[C@H](CC[C@@H]4[C@@]5(C)CC[C@H](OC(=O)CC(C)(C)C(=O)O)C(C)(C)[C@@H]5CC[C@]43C)[C@@H]12 ; result: 9 µM
C=C(C)[C@@H]1CC[C@]2(C(=O)NCCCCCCCC(=O)O)CC[C@]3(C)[C@H](CC[C@@H]4[C@@]5(C)CC[C@H](OC(=O)CC(C)(C)C(=O)O)C(C)(C)[C@@H]5CC[C@]43C)[C@@H]12 ; result: >10 µM
Cc1cccc(Nn2c(-c3ccccc3)c(C)[nH]c2=S)c1 ; result: 88.25 µM
CN1CCn2c(nc(C(=O)NCc3ccc(F)cc3)c(O)c2=O)C(N(CC2CCCCC2)C(=O)C(=O)N(C)C)C1 ; method: microscopy ; result: >1 µM
C=C(C)[C@@H]1CC[C@]2(C(=O)NCCCCCCCNC(C)=O)CC[C@]3(C)[C@H](CC[C@@H]4[C@@]5(C)CC[C@H](OC(=O)CC(C)(C)C(=O)O)C(C)(C)[C@@H]5CC[C@]43C)[C@@H]12 ; result: 8 µM
Oc1ccc(-c2nn3c(-c4ccc(O)c(Cl)c4Cl)nnc3s2)c(Cl)c1Cl ; method: MTT ; result: 67.8 µg/mL
C=C(C)[C@@H]1CC[C@]2(C(=O)O)CC[C@]3(C)[C@H](CC[C@@H]4[C@@]5(C)CC[C@H](OC(=O)CC(C)(C)C(=O)O)C(C)(C)[C@@H]5CC[C@]43C)[C@@H]12 ; result: 7.5 µM
Nc1nc(N)c2ncn([C@H]3C[C@@H](OCP(=O)(O)O)CO3)c2n1 ; method: MTT / absorbance ; result: >378 µM
Cc1cc(C#N)cc(C)c1Oc1ccnc(Nc2ccc(CN3CCC(NC(=O)OC(C)(C)C)CC3)cc2)n1 ; method: MTT ; result: 4.34 µM
Cc1ccc(S(=O)(=O)n2c(=O)[nH]c3ccc(Cl)cc32)cc1C ; method: MTS ; result: >371 µM
C=C(C)[C@@H]1CC[C@]2(C(=O)NCCCCCCCCCNC(C)=O)CC[C@]3(C)[C@H](CC[C@@H]4[C@@]5(C)CC[C@H](OC(=O)CC(C)(C)C(=O)O)C(C)(C)[C@@H]5CC[C@]43C)[C@@H]12 ; result: 7.4 µM
Cc1cc(CN2CCn3c(nc(C(=O)NCc4ccc(F)cc4)c(O)c3=O)C2(C)C)no1 ; method: microscopy ; result: >1 µM
Cc1ncn(Nc2cccc(Cl)c2)c1-c1cccc(Cl)c1 ; result: 11.94 µM
CCCCCCN(CCCCCC)c1ccc(/C=C2/SC(=O)N(CC(=O)Nc3nc4ccc(SC#N)cc4s3)C2=O)cc1 ; method: MTT ; result: 39 µM
CCOP(=O)(OCC)C(N[C@@H](Cc1ccccc1)[C@@H](O)CN(CC(C)C)S(=O)(=O)c1ccc(OC)cc1)c1ccc(C)cc1 ; method: MTT ; result: 4.94 µg/mL
Cc1ncn(Nc2ccc(F)cc2)c1-c1ccccc1 ; result: 30.82 µM
Cc1cn([C@H]2C[C@H](N=[N+]=[N-])[C@@H](CO)O2)c(=O)[nH]c1=O ; method: MTT / absorbance ; result: >7.48 µM
Cc1cccc(S(=O)(=O)c2c(C(=O)NCCO)[nH]c3ccc(Cl)cc23)c1 ; method: MTT ; result: 60 µM
CCOC(=O)c1cc2ccc(Nc3ccc(COCCc4ccc(F)cc4)cc3)cc2[nH]1 ; method: MTT ; result: >80 µM
COc1ccc(NC(=O)NN2C(=O)[C@H]3[C@H]4C=C(C)[C@H](C[C@@H]4C(C)C)[C@H]3C2=O)cc1 ; method: MTT ; result: 46 µM
O=C1CSc2nnc(-c3ccc(Cl)c(Cl)c3)n2N1 ; method: MTT ; result: 35.23 µg/mL
COc1ccc(NC(=S)NN2C(=O)[C@H]3[C@H]4C=C(C)[C@H](C[C@@H]4C(C)C)[C@H]3C2=O)cc1 ; method: MTT ; result: 52 µM
CCOP(=O)(OCC)C(N[C@@H](Cc1ccccc1)[C@H](O)CN(CC(C)C)S(=O)(=O)c1ccc(OC)cc1)C(C)C ; method: MTT ; result: 11.52 µg/mL
Cc1[nH]c(=S)n(Nc2ccccc2)c1C ; result: 181 µM
CCCOC(=O)[C@H](Cc1ccccc1)NP(=O)(CO[C@H]1CO[C@@H](n2cnc3c(NC4CC4)nc(N)nc32)C1)N[C@@H](Cc1ccccc1)C(=O)OCCC ; method: MTT / absorbance ; result: 60.1 µM
Cc1cc(C#N)cc(C)c1Oc1ccnc(Nc2ccc(CN3CCOCC3)cc2)n1 ; method: MTT ; result: 23 µM
CC1=C[C@@H]2[C@@H]3C(=O)N(NC(=S)NC4CCCCC4)C(=O)[C@@H]3[C@H]1C[C@@H]2C(C)C ; method: MTT ; result: 47 µM
Cc1ccccc1S(=O)(=O)c1c(C(=O)NCCO)[nH]c2ccc(Cl)cc12 ; method: MTT ; result: >100 µM
Clc1ccc(-c2nnc3sc(-c4cccs4)nn23)cc1Cl ; result: 92.7 µg/mL
Cc1ccc(Sc2c(C(=O)NNCCO)[nH]c3ccc(Cl)cc23)c(C)c1 ; method: MTT ; result: 66 µM
Nc1ccc(-c2nn3c(-c4ccc(Cl)c(Cl)c4)nnc3s2)cc1 ; result: 19.61 µg/mL
CC(C)[C@]12C=C[C@](C)(CC1)[C@H]1C(=O)N(NC(=S)NC3CCCCC3)C(=O)[C@H]12 ; method: MTT ; result: 53 µM
COc1cc(/C=C2/SC(=O)N(CC(=O)Nc3nc4ccc(SC#N)cc4s3)C2=O)ccc1O ; method: MTT ; result: >100 µM
Cc1cccc(Sc2c(C(=O)NCCO)[nH]c3ccc(Cl)cc23)c1 ; method: MTT ; result: 30 µM
CCOP(=O)(OCC)C(N[C@@H](Cc1ccccc1)[C@@H](O)CN(CC(C)C)S(=O)(=O)c1ccc(OC)cc1)c1ccc2c(c1)OCO2 ; method: MTT ; result: 13.73 µg/mL
Cc1cccc(Nn2c(-c3ccccc3)c(C(C)C)[nH]c2=S)c1 ; result: 42.63 µM
CC1=C(C)[C@]2(C)C(C)[C@@]1(C)[C@@H]1C(=O)N(NC(=S)NC3CCCCC3)C(=O)[C@@H]12 ; method: MTT ; result: 48 µM
CC1(C)c2nc(C(=O)NCc3ccc(F)cc3)c(O)c(=O)n2CCN1Cc1cocn1 ; method: microscopy ; result: >1 µM
C=C(C)[C@@H]1CC[C@]2(C(=O)N[C@@H](CC(C)C)C(=O)O)CC[C@]3(C)[C@H](CC[C@@H]4[C@@]5(C)CC[C@H](OC(=O)CC(C)(C)C(=O)O)C(C)(C)[C@@H]5CC[C@]43C)[C@@H]12 ; result: 10 µM
CCOC(=O)c1cc2ccc(Nc3cccc(CF)c3)cc2[nH]1 ; method: MTT ; result: >80 µM
Cc1cc(C)c(Oc2nc(N)nc(Nc3ccc(CN4CCOCC4)cc3)n2)c(C)c1 ; method: MTT ; result: ≥12.89 µM
Nc1ncnc2c1ccn2/C=C/[C@H](CO)OCP(=O)(O)O ; method: MTT / absorbance ; result: >398 µM
Cc1ncn(Nc2ccccc2)c1-c1ccccc1 ; result: 52.18 µM
Clc1ccc(-c2nnc3sc(-c4cccnc4)nn23)cc1Cl ; result: 80.05 µg/mL
CC1=C(C)[C@]2(C)C(C)[C@@]1(C)[C@@H]1C(=O)N(NC(=O)NC3CCCCC3)C(=O)[C@@H]12 ; method: MTT ; result: 12 µM
CC1(C)c2nc(C(=O)NCc3ccc(F)cc3)c(O)c(=O)n2CCN1Cc1ccccn1 ; method: microscopy ; result: >1 µM
N#CSc1ccc2nc(NC(=O)CCl)sc2c1 ; method: MTT ; result: 8 µM
O=c1[nH]cnc2c1ncn2[C@H]1C[C@@H](OCP(=O)(O)O)CO1 ; method: MTT / absorbance ; result: >395 µM
N#CSc1ccc2nc(N)sc2c1 ; method: MTT ; result: 26 µM
Oc1ccc(-c2nnc3sc(-c4cccnc4)nn23)c(Cl)c1Cl ; method: MTT ; result: 80.05 µg/mL
O=S(=O)(O)O.OCC(O)C(O)C(OC1OC(CO)C(O)C(OC2OC(CO)C(O)C(OC3OC(CO)C(O)C(OC4OC(CO)C(O)C(OC5OC(CO)C(O)C(O)C5O)C4O)C3O)C2O)C1O)C(O)CO ; result: 254 µg/mL
C=C(C)[C@@H]1CC[C@]2(C(=O)NCCCCCCCC(=O)N[C@@H](CC(C)C)[C@@H](O)CC(=O)O)CC[C@]3(C)[C@H](CC[C@@H]4[C@@]5(C)CC[C@H](O)C(C)(C)[C@@H]5CC[C@]43C)[C@@H]12 ; result: >10 µM
Cc1cc(C#N)cc(C)c1Oc1ccnc(Nc2ccc(CN3CCC(NS(C)(=O)=O)CC3)cc2)n1 ; method: MTT ; result: 18.1 µM
COC(=O)c1c(C)[nH]c(=S)n1Nc1cccc(Cl)c1 ; result: 190 µM
COc1cc(/C=C/C(=O)OCCCc2ccc(OC(COC(=O)/C=C/c3ccc(O)c(OC)c3)[C@@H](OC)c3ccc(O)c(OC)c3)c(OC)c2)ccc1O ; method: luminescence ; result: >10 µM
CCN(C(=O)C(=O)N(C)C)C1CN(C)CCn2c1nc(C(=O)NCc1ccc(F)cc1)c(O)c2=O ; method: microscopy ; result: >1 µM
O=S(=O)(O)O.OCC(O)C(O)C(OC1OC(CO)C(O)C(OC2OC(CO)C(O)C(OC3OC(CO)C(O)C(OC4OC(CO)C(O)C(O)C4O)C3O)C2O)C1O)C(O)CO ; result: 238 µg/mL

Repeating the first 4 entries:

SMILES,method,result
CCOP(=O)(N[C@@H](Cc1ccccc1)[C@H](O)CN(CC(C)C)S(=O)(=O)c1ccc(OC)cc1)OCC,MTT,64.5 µg/mL
CC1=C(C)[C@]2(C)C(C)[C@@]1(C)[C@@H]1C(=O)N(N)C(=O)[C@@H]12,MTT,>100 µM
Nc1ccc(-c2n[nH]c(=S)n2N)cc1,,12 µg/mL
C=C(C)[C@@H]1CC[C@]2(C(=O)NCCCCCNC(C)=O)CC[C@]3(C)[C@H](CC[C@@H]4[C@@]5(C)CC[C@H](OC(=O)CC(C)(C)C(=O)O)C(C)(C)[C@@H]5CC[C@]43C)[C@@H]12,,9 µM